Source: paper PMC7985570 (Signal Transduction and Targeted Therapy, 2021)

Each compound was assayed on S-D614, N501Y.V1, N501Y.V2, S-SARS and S-MERS pseudoviruses. Details: including variants N501Y.V1 and N501Y.V2.

SMILES	activity against S-pseudotyped coronaviruses
COc1ccc2cc1Oc1ccc(cc1)C[C@H]1c3c(cc4c(c3Oc3cc5c(cc3OC)CCN(C)[C@@H]5C2)OCO4)CCN1C [SC9, Cepharanthine]	highly potent pan-inhibitory activity
COc1ccc2cc1Oc1ccc(cc1)C[C@H]1c3cc(c(OC)cc3CCN1C)Oc1c(OC)c(OC)c(OC)c3c1[C@H](C2)N(C)CC3 [SC161, Hernandezine]	highly potent pan-inhibitory activity
CC1CCN(CC(O)COc2cccc(OCC(O)CN3CCC(C)CC3)c2)CC1 (stereo not shown) [SC171, 3,3'-(1,3-phenylenebis(oxy))bis(1-(4-methylpiperidin-1-yl)propan-2-ol)]	highly potent pan-inhibitory activity
COc1ccc(C[C@@H]2c3cc(Oc4cc(C[C@@H]5c6cc(OC)c(OC)cc6CCN5C)ccc4O)c(OC)cc3CCN2C)cc1 [SC185, Neferine]	highly potent pan-inhibitory activity
